Assay: general procedure: Fmoc solid-phase peptide synthesis; TentaGel S Ram S resin
Conditions: whole synthesis

H-Y-Aib-EGTFTSDYSIYLDK-K([17-carboxy-heptadecanoyl]-isoGlu-Peg3-Peg3)-AQRAFVEWLLAQGPSSGAPPPS-NH2
final HPLC purity (HPLC and MS): 91%
crude purity (method not given) (analytical HPLC and MS): 45%
